Measured values published in patent publication US20220356230A1 (published 2022).

Assays:
[1] = target: Human SARS Coronavirus Spike S1 Subunit Protein (His Tag) (Sino 40150-V08B1) (Human SARS Coronavirus, UniProt P59594 14-667); assay: Luminex bead binding, antigen on microspheres, antibody supernatant
[2] = target: Human SARS Coronavirus Spike Protein (Receptor Binding Domain, His Tag) (Sino 40150-V08B2) (Human SARS Coronavirus, UniProt P59594 306-527); assay: as above
[3] = target: Human SARS Coronavirus Spike Protein (Receptor Binding Domain, His Tag) (Sino 40150-V08B2) (Human SARS Coronavirus, UniProt P59594 306-527); assay: Luminex bead assay, supernatant on antigen microspheres

B1: mAb10970 (antibody, V domains shown)
VH: EVQLVESGGGLVQPGGSLRLSCAASGFTVSSNYMSWVRQAPGKGLEWVSVIYSGGSTYYADSVKGRFTISRDNSKNTLYLQMNRLRADDTAVYYCVRDPVGRYYYGMDVWGQGTTVTVSS
VL: not shown
In the case of B1, the MFI [1] is reported as 19 MFI.

B2: mAb10987 (antibody, V domains shown)
VH: QVQLVESGGGVVQPGRSLRLSCAASGFTFSNYAMYWVRQAPGKGLEWVAVISYDGSNKYYADSVKGRFTISRDNSKNTLYLQMNSLRTEDTAVYYCASGSDYGDYLLVYWGQGTLVTVSS
VL: QSALTQPASVSGSPGQSITISCTGTSSDVGGYNYVSWYQQHPGKAPKLMIYDVSKRPSGVSNRFSGSKSGNTASLTISGLQSEDEADYYCNSLTSISTWVFGGGTKLTVLG
For B2, the MFI [2] was 27 MFI.

B3: mAb10933 (antibody, V domains shown)
VH: QVQLVESGGGLVKPGGSLRLSCAASGFTFSDYYMSWIRQAPGKGLEWVSYITYSGSTIYYADSVKGRFTISRDNAKSSLYLQMNSLRAEDTAVYYCARDRGTTMVPFDYWGQGTLVTVSS
VL: DIQMTQSPSSLSASVGDRVTITCQASQDITNYLNWYQQKPGKAPKLLIYAASNLETGVPSRFSGSGSGTDFTFTISGLQPEDIATYYCQQYDNLPLTFGGGTKVEIKR
B3 was tested, and the “Binding signal (MFI)” value [3] was 31 MFI.
